Laboratory results: PubChem BioAssay AID504761 (Drosophila RNAi Screening Center, 2011)

Purpose: 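Insect host genes that dengue virus relies on to spread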 (primary screen)
Cells: D.Mel-2 cells from Drosophila
Reagents: long dsRNA against Drosophila genes
Challenge: infection with dengue virus type 2; dose and infection time not stated
Detection: 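Cells stained for dengue envelope protein and imaged; percent of infected cells per well on duplicate plates, ranked by infection, with stained nuclei counted for cell number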
Scale: infection score: higher = more virus-infected cells; cell count: higher = more cells in the well
Hit rule: 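Very low infection ranking in both replicate wells (chance probability at most 0.065), then a retest showing infection dropped 1.5-fold or more at p below 0.05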
Meaning of the calls: active = confirmed: knock-down lowers infection; inactive = not picked or not confirmed
The screen tested about 22,000 reagents; shown is an unselected part of those with a known target gene and a result. Over the whole deposit, 116 (0.52%) got an active call. 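Calls depend on retest data that are not deposited; infection was ranked per plate without normalising between plates; the unit of the infection score is not given.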 The raw values are shown without normalisation. No sequences are given here. The record does not give: the amount of reagent, the time to read-out.

The opening 2 records, to show the layout:
Target gene	DRSC id	infection score, replicate 1	infection score, replicate 2	cell count, replicate 1	cell count, replicate 2	Outcome
CG7213	DRSC10787	2.62	4.24	5953	5824	inactive
CG15514	DRSC15053	5.76	8.02	5802	6073	inactive

The list itself, repeating the preview:
Target gene	DRSC id	infection score, replicate 1	infection score, replicate 2	cell count, replicate 1	cell count, replicate 2	Outcome
CG7213	DRSC10787	2.62	4.24	5953	5824	inactive
CG15514	DRSC15053	5.76	8.02	5802	6073	inactive
CG15514	DRSC29785	13.2	1.32	5550	5218	inactive
Ssadh	DRSC15621	5.85	4.67	6305	6495	inactive
Ssadh	DRSC27782	9.6	37	6740	4481	inactive
CG7166	DRSC11809	15.1	19.5	6129	5294	inactive
Abcd1	DRSC17157	6.2	0.96	5998	6362	inactive
CG6138	DRSC02933	5.36	2.21	6209	6825	inactive
robl62A	DRSC08153	3.51	3.71	5954	5951	inactive
CG6686	DRSC02979	18.3	7.97	4117	3812	inactive
CG6686	DRSC27705	25.6	17.4	4472	4114	inactive
Dfd	DRSC12593	7.2	2.48	6305	6402	inactive
Dfd	DRSC27981	6.38	5.9	6782	6928	inactive
Hph	DRSC12164	2.69	8.4	6327	6747	inactive
Hph	DRSC12251	2.89	2.87	6224	6700	inactive
Hph	DRSC25979	12.2	1.02	6283	6688	inactive
Mvb12	DRSC20027	5.13	1.38	6390	6674	inactive
Sf3a2	DRSC09801	26.9	20.1	3774	3162	inactive
CG1737	DRSC19771	1.99	3.09	6093	6465	inactive
CG1737	DRSC25132	1.69	14.2	5913	5883	inactive
CG3556	DRSC18309	11.7	2.9	5299	6374	inactive
CG3556	DRSC27365	3.23	34.3	6631	5121	inactive
CG18662	DRSC02691	9.23	7.87	5514	6781	inactive
CecC	DRSC16606	3.79	1.57	3115	6618	inactive
robl	DRSC07674	12.5	22.4	5626	4142	inactive
Lip2	DRSC02577	3.65	6.42	6380	6353	inactive
Lip2	DRSC02578	2.64	0.21	6552	6313	inactive
Axs	DRSC19333	2.45	1.9	6652	7050	inactive
CG6154	DRSC15977	1.09	4.04	6516	6216	inactive
CG6154	DRSC28363	10.5	2.96	6123	742	inactive
CG1785	DRSC18139	3.73	0.79	6093	6608	inactive
CG1785	DRSC30032	2.84	4.76	6384	6451	inactive
CG17049 (retired record)	DRSC06650	13.4	16.3	2542	5916	inactive
Parp1	DRSC07725	3.28	0.76	5674	5526	inactive
Parp1	DRSC07778	0.88	1.13	6231	5953	inactive
Parp1	DRSC07780	1.07	0.95	6647	6223	inactive
BBS8	DRSC00360	16.5	9.17	6364	7013	inactive
BBS8	DRSC27758	33.6	33.1	4920	4889	inactive
alpha-Est2	DRSC12614	3.21	3.36	6270	6691	inactive
CycJ	DRSC08653	5.05	6.02	1863	1262	inactive
CycJ	DRSC29329		17.4	306	2687	inactive
flfl	DRSC16474	6.8	6.45	5104	5146	inactive
beat-IIa	DRSC14813	11.9	4.72	3585	530	inactive
beat-IIa	DRSC14814	5.88	17.4	6616	4688	inactive
mle	DRSC04921	12.5	1.96	5419	6620	inactive
EDTP	DRSC07409	17	12	4891	5729	inactive
Dpit47	DRSC04985	2.41	5.8	6597	6604	inactive
Dpit47	DRSC28888	14.7	3.27	1476	1499	inactive
UK114	DRSC01973	4.38	5.02	6399	6911	inactive
CG17752	DRSC15262	0.58	6.5	7072	6938	inactive
CG17752	DRSC26265	5.17	1.16	6269	6288	inactive
CG3634	DRSC11747	4.39	3.74	6151	6583	inactive
CG1631	DRSC20535	6.79	2.33	4049	6144	inactive
CG2608	DRSC02709	11.7	7.29	6323	6133	inactive
Afg3l2	DRSC10657	7.13	23	3323	3010	inactive
Afg3l2	DRSC29981	29.7	10.5	3358	4240	inactive
CG14974	DRSC08433	3.01	5.3	6347	6320	inactive
CG30271	DRSC04170	6.59	7.4	6696	6795	inactive
CG30271	DRSC30044	14.1	7.36	4909	6481	inactive
